Earlier results in paper PMC12676205, “New Se‐Compounds With Antileishmanial, Antitumor, and Carbonic Anhydrase Inhibitory Properties” (Archiv Der Pharmazie, 2025).

Legend:
[1] = system: L. infantum promastigotes; design: method as in PMID 37570815, PMID 36364304; details: CC50 THP‐1 / IC50; reference drugs; cited from earlier work
[2] = system: L. major promastigotes; design: method as in PMID 37570815, PMID 36364304; details: CC50 THP‐1 / IC50; reference drugs; cited from earlier work

Compound	SI L. infantum [1]	SI L. major [2]
CCCCCCCCCCCCCCCCOP(=O)([O-])OCC[N+](C)(C)C [Miltefosine, miltefosine]	0.4	0.2
NC[C@@H]1O[C@H](O[C@H]2[C@@H](O)[C@H](O[C@@H]3[C@@H](O)[C@H](N)C[C@H](N)[C@H]3O[C@H]3O[C@H](CO)[C@@H](O)[C@H](O)[C@H]3N)O[C@@H]2CO)[C@H](N)[C@@H](O)[C@@H]1O [Paromomycin, paromomycin]	2.2	0.6
